From US20210290651A1, “METHODS OF TREATING VIRAL INFECTIONS USING INHIBITORS OF NUCLEOTIDE SYNTHESIS PATHWAYS” (priority 2020, published 2021)

Tested on: SARS-CoV-2
Assay: microbe, parasite or virus in culture
Type: cell-based

## Cc1c(-c2ccc(-c3ccccc3F)cc2)nc2ccc(F)cc2c1C(=O)O [brequinar, 6-fluoro-2-(2′-fluoro-1,1′ biphenyl-4-yl)-3-methyl-4-quinoline carboxylic acid]
Severe acute respiratory syndrome coronavirus 2, Vero C1008, read-out: EC50, anti-SARS-CoV-2 activity
  EC50: ~200 nM
Severe acute respiratory syndrome coronavirus 2, Vero C1008, read-out: EC50: Concentration inhibiting 50% of the maximum CPE-protection effect of the compound (Emax)
  EC50: ~200 nM
Severe acute respiratory syndrome coronavirus 2, Vero C1008, read-out: IC50: Concentration inhibiting 50% of the virus-induced CPE compared to the no infection control
  IC50: 200 nM

Where two headings read alike, the source gives them in different places.
